Measured values from article PMC5308254, “Bioactivity of Natural and Engineered Antimicrobial Peptides from Venom of the Scorpions Urodacus yaschenkoi and U. manicatus” (Toxins, 2017).

Key:
Format in all cases: cell-based
Settings in all cases: calculated based on HC50 values (pig erythrocytes) and MIC; ratio HC50 / MIC
Escherichia coli (D31) = assay: Growth inhibition assay (MIC), E. coli
Experimental: (§1) The minimal inhibitory concentration (MIC) of each AMPs was determined against the Gram-positive bacteria Listeria monocytogenes (DSM20600), L. grayi (DSM20601), L. fleischmannii (DSM24998), Staphylococcus aureus (DSM2569) and Micrococcus luteus (DSM20030), and the Gram-negative species Escherichia coli (D31) and Pseudomonas aeruginosa (DSM50071). The scorpion peptides were prepared at concentrations of 0.015–250 μM. The assays were carried out in 384-well plates (Greiner Bio One, Frickenhausen, Germany) using Brain Heart Infusion Broth (BHIB) medium for Listeria spp., Tryptic Soy Broth (TSB) for S. aureus, and lysogeny broth (LB) for the others. The bacteria were cultivated overnight at either 37 °C (Listeria spp., S. aureus, E. coli and P. aeruginosa) or 30 °C (M. luteus) and subcultured in fresh media before the growth inhibition assays. Growth inhibition was measured as previously described.

[1] = tested on: Listeria monocytogenes (DSM20600); assay: Growth inhibition assay (MIC), L. monocytogenes
Experimental: as §1

[2] = tested on: Staphylococcus aureus (DSM2569); assay: Growth inhibition assay (MIC), S. aureus
Experimental: as §1

Row | Substance | Therapeutic index (TI) E. coli (Escherichia coli (D31)) | Therapeutic index (TI) L. monocytogenes [1] | Therapeutic index (TI) S. aureus [2]
1 | ILSAIWSGIKSLF-NH2 [UyCT3] | 7.26 | 14.53 | –
2 | FPFLKLSLKIPKSAIKSAIKRL-NH2 [D10] | 215.75 | 57.53 | –
3 | ILSAIWSGIKGLL-NH2 [Uy17] | – | 9.22 | 4.61
4 | GFWGKLWEGVKNAI-NH2 [UyCT1] | 35.62 | 35.62 | –
5 | GFWGKLWEGVKNAIKKK-NH2 [D11] | 277.5 | 555 | –
6 | IFGAIWSGIKSLF-NH2 [D1] | 5.99 | 11.99 | –
7 | GFWGKLLEGVKKAI-NH2 [D5] | 109.06 | 109.06 | –
8 | FLSTIWNGIKGLL-NH2 [Uy192] | 10.37 | 19.45 | 10.37
9 | IFKAIWSGIKSLF-NH2 [Um5] | 3.95 | 29.62 | –
10 | FLSTIWNGIKSLF-NH2 [D2] | – | 1.63 | 3.06
11 | GFWGKLWEGVKSAI-NH2 [Um3] | 8.41 | 15.77 | 8.41
12 | FPFLLSLIPSAISAIKRL-NH2 [Uy234] | – | 52.25 | –
13 | IWSAIWSGIKGLL-NH2 [UyCT5] | 1.37 | 5.14 | 2.57

No end group written: not given here.
